Results of unrelated studies side by side (data: NIAID ChemDB).

Shared fields: whole-cell or culture tests; organism: HIV-1

Rows are shuffled and stem from different studies.

smiles,cells,changes,method,endpoint,strain,conditions,value
COC(=O)[C@@H]1CCCN1P(=O)(OC[C@H]1C=C[C@@H](n2cnc3c(N)ncnc32)C1)Oc1ccccc1,MT-4,,cytopathic effect / MTS,EC50,IIIB,,10 µM
C=C(C)[C@H](O)COc1cc(OC)c2c(c1)C(=O)c1cc(O)cc(O)c1-2,C8166,,MTT,EC50,IIIB,,1.58 µg/mL
COc1cc(OC)cc(OC2O[C@H](CO)[C@@H](O)[C@H](O)[C@H]2O)c1,MT-4,,MTT,EC50,IIIB,,193 µM
CCCc1cc(=O)oc2c3c(c4c(c12)OC(C)(C)CC4)O[C@H](C)[C@@H](C)[C@@H]3O,CEM + CEM-SS,,RT activity,EC50,RF,,0.13 µM
CC(=O)N1CCOCC1c1nc(C(=O)NCc2ccc(F)cc2)c(O)c(=O)n1C,MT-4,,p24 / ELISA,EC95,IIIB,10% FBS,>1 µM
C(=Nc1ccccc1)c1cc2ccccc2nc1Nc1ccccc1,TZM-bl,,luminescence,EC50,UG070,,>100 µM
CC[C@H](C)[C@H](NP(=O)(OC[C@H]1C=C[C@@H](n2cnc3c(N)ncnc32)C1)Oc1ccccc1)C(=O)OC,MT-4,,cytopathic effect / MTS,EC50,IIIB,,1.3 µM
Cc1cc2nc(-c3ccc4c(c3)c(C3CCN(C5CN(S(C)(=O)=O)C5)CC3)nn4C)sc2c(-c2ccc(Cl)cc2)c1[C@H](OC(C)(C)C)C(=O)O,MT-4,,luminescence,EC50,IIIB,,0.013 µM
O=C1N(Cc2ccccc2)[C@H](Cc2ccccc2)[C@H](O)[C@@H](O)[C@@H](Cc2ccccc2)N1Cc1ccccc1,MT-2,,,EC50,RF,,<0.79 µM
CC(C)OC(=O)[C@H](C)NP(=O)(OC[C@H]1C=C[C@@H](n2cnc3c(N)ncnc32)C1)Oc1ccccc1,MT-4,,cytopathic effect / MTS,EC50,IIIB,,0.425 µM
COc1ccc(C[C@@H]2[C@H](O)[C@@H](O)[C@@H](Cc3ccc(OC)c(OC)c3)N(Cc3ccccc3)C(=O)N2Cc2ccccc2)cc1OC,MT-2,,,EC50,RF,,<0.64 µM
Cc1ccc(NC(=O)CSc2nnc(C)n2-c2cccc3ccccc23)c(Cl)c1,HeLa,Y188L,,EC50,,,0.589 µM
O=C1N(Cc2ccc(CO)cc2)[C@H](Cc2ccc3c(c2)OCCO3)[C@H](O)[C@@H](O)[C@@H](Cc2ccc3c(c2)OCCO3)N1Cc1ccc(CO)cc1,MT-2,,,EC50,RF,,<0.083 µM
CCn1nc(C2CCN(C3CN(C(C)=O)C3)CC2)c2cc(-c3nc4cc(C)c([C@H](OC(C)(C)C)C(=O)O)c(-c5ccc(Cl)cc5)c4s3)ccc21,MT-4,,luminescence,EC50,IIIB,,0.007 µM
CCc1ccc(-n2c(C)nnc2SCC(=O)Nc2ccccc2Br)c2ccccc12,HeLa,Y188L,,EC50,,,0.058 µM
COC(=O)[C@H](C)NP(=O)(OC[C@H]1C=C[C@@H](n2cnc3c(N)ncnc32)C1)Oc1ccc(Cl)cc1,MT-4,,cytopathic effect / MTS,EC50,IIIB,,0.013 µM
COc1cc2c(cc1O)[C@@H](Cc1ccc(O)cc1)N(C)CC2,H9,,p24,EC50,IIIB,,<0.8 µg/mL
O=C1N(Cc2ccc(O)cc2)[C@H](Cc2ccccc2)[C@H](O)[C@@H](O)[C@@H](Cc2ccccc2)N1Cc1ccc(O)cc1,MT-2,,,EC50,RF,,<0.032 µM
CN1C[C@H](OCc2ccccc2)C[C@H]1c1nc(C(=O)NCc2ccc(F)cc2)c(O)c(=O)n1C,MT-4,,p24 / ELISA,EC95,IIIB,50% human serum,0.31 µM
CCCc1cc(=O)oc2c3c(c4c(c12)OC(C)(C)C=C4)O[C@H](C)C(C)(C)C3=O,CEM + CEM-SS,,cytopathic effect / MTT,EC50,IIIB,,>19.3 µM
Cc1cc2nc(-c3ccc4c(c3)c(C3CCN(C5COC5)CC3)nn4CCN(C)C)sc2c(-c2ccc(Cl)cc2)c1[C@H](OC(C)(C)C)C(=O)O,MT-4,,luminescence,EC50,IIIB,,0.011 µM
OC[C@@H]1C=C[C@H](n2cnc3c(NC4CC4)ncnc32)C1,MT-4,,cytopathic effect / propidium iodide,EC50,IIIB,,>200 µM
CC(=O)N[C@H]1C[C@@H](c2nc(C(=O)NCc3ccc(F)cc3)c(O)c(=O)n2C)N(C)C1,MT-4,,p24 / ELISA,EC95,IIIB,50% human serum,>1 µM
CCCc1cc(=O)oc2c3c(c4c(c12)OC(C)(C)C=C4)OC(C)(C)[C@H](C)[C@@H]3O,CEM + CEM-SS,,cytopathic effect / MTT,EC50,IIIB,,>21.3 µM
Cc1cc2nc(-c3ccc4c(c3)c(N3C5CC3CN(C3COC3)C5)nn4C)sc2c(-c2ccc(Cl)cc2)c1[C@H](OC(C)(C)C)C(=O)O,MT-4,,luminescence,EC50,IIIB,,0.011 µM
CC(C)=CCN1Cc2cccc3[nH]c(=S)n(c23)C[C@@H]1C,CEM,,,EC50,IIIB,,0.09 µM
Cc1cc2nc(-c3ccc4c(c3)c(C3CCN(C[C@H]5CCN5C)CC3)nn4C)sc2c(-c2ccc(Cl)cc2)c1[C@H](OC(C)(C)C)C(=O)O,MT-4,,luminescence,EC50,IIIB,,0.011 µM
N#Cc1ccc(Nc2nc(Cc3c(Cl)cccc3Cl)nc(NO)n2)cc1,MT-4,RT-L100I K103N,cytopathic effect / MTT,EC50,NNRTI-resistant (RT L100I K103N),,5 µM
Cc1cc2nc(-c3ccc4c(c3)c(N3CCN(C5CC(O)C5)CC3)nn4C)sc2c(-c2ccc(Cl)cc2)c1[C@H](OC(C)(C)C)C(=O)O,MT-4,,luminescence,EC50,IIIB,,0.018 µM
Cc1cn([C@H]2C[C@H](N=[N+]=[N-])[C@@H](CO)O2)c(=O)[nH]c1=O,MT-4,,MTT,EC50,IIIB,,0.0036 µM
CN(c1nc(N)nc2c1ncn2[C@H]1C=C[C@@H](CO)C1)C1CC1,MT-4,,cytopathic effect / propidium iodide,EC50,IIIB,,9 µM
Cc1ccc(NC(=O)CSc2nnc(C)n2-c2ccc(C)c3ccccc23)c(Cl)c1,HeLa,Y188L,,EC50,,,0.1 µM
CC(=O)c1cc(CN2C(=O)N(Cc3ccc(F)c(C(C)=O)c3)[C@H](Cc3ccc4c(c3)OCO4)[C@H](O)[C@@H](O)[C@H]2Cc2ccc3c(c2)OCO3)ccc1F,MT-2,,,EC50,RF,,<0.265 µM
CC(=O)Oc1ccc(/C=C/C(=O)O[C@H](C(=O)O)[C@H](OC(=O)/C=C/c2ccc(OC(C)=O)c(OC(C)=O)c2)C(=O)O)cc1OC(C)=O,MT-4,,cytopathic effect / MTT,EC50,NL4-3,,7.8 µM
COc1cc2c(cc1O)CC[N+](C)(C)[C@@H]2Cc1ccc(O)cc1,H9,,p24,EC50,IIIB,,20.7 µg/mL
O=c1[nH]cnc2c1ncn2[C@H]1CC[C@@H](CO)O1,PBMC,,p24 / ELISA,EC50,HXB2D,,7.2 µM
CC(=O)c1ccc2ccc(C(=O)Nc3ccc(O)c(O)c3)nc2c1O,TZM-bl,,luminescence,EC50,,,0.9 µM
Nc1nc(N2CCC2)c2ncn([C@H]3C=C[C@@H](CO)C3)c2n1,MT-4,,cytopathic effect / propidium iodide,EC50,IIIB,,6.1 µM
Cc1cc2nc(-c3ccc4c(c3)c(C3CCN(C5CC(O)C5)CC3)nn4C)sc2c(-c2ccc(Cl)cc2)c1[C@H](OC(C)(C)C)C(=O)O,MT-4,,luminescence,EC50,IIIB,,0.021 µM
CC(=O)N1CCC(C(=O)N(CCCN2CCC(Cc3ccc(C(N)=O)cc3)CC2)c2ccc(C)c(Cl)c2)CC1,U87 (CD4+ CCR5+) + U87,,luciferase,EC50,R5 subtype B_8 recombinant,,0.016 µM
COc1ccc(/C=C/C(=O)O)cc1OC,MT-4,,MTT,EC50,IIIB,,17.81 µM
Cc1cc(S(N)(=O)=O)ccc1NC(=O)COc1ccc(Cl)cc1C(=O)c1cc(Cl)cc(C#N)c1,MAGI,RT-K103N Y181C,β-galactosidase,EC50,NNRTI-resistant (RT K103N Y181C),,0.0014 µM
CCCc1cc(=O)oc2c3c(c4c(c12)OC(C)(C)C=C4)O[C@@H](C)[C@H](C)[C@H]3O,MT-2,,cytopathic effect / MTT,EC50,H112-2,,>2.5 µM
COC(=O)[C@H](CC(C)C)NP(=O)(OC[C@H]1C=C[C@@H](n2cnc3c(N)ncnc32)C1)Oc1ccccc1,MT-4,,cytopathic effect / MTS,EC50,IIIB,,0.64 µM
Cc1c(O)cccc1C(=O)N[C@@H](CSc1ccccc1)[C@H](O)CN1C[C@H]2CCCC[C@H]2C[C@H]1C(=O)NC(C)(C)CO,CEM + CEM-SS,,cytopathic effect / MTT,EC50,RF,,0.0342 µM
CCOC(=O)c1[nH]c2ccc(Cl)cc2c1C1(C)CC1,293T,,luciferase,EC50,,,2.25 µM
Cc1ccc(-n2c(SCC(=O)Nc3ccc(S(N)(=O)=O)cc3Cl)nnc2C(F)(F)F)c2ccccc12,HeLa,Y188L,,EC50,,,0.025 µM
Cc1cn([C@@H]2O[C@H](CO[Si](C)(C)C(C)(C)C)C3(OS(=O)(=O)C=C3N)[C@H]2O[Si](C)(C)C(C)(C)C)c(=O)n(C)c1=O,CEM,RT-E138K,,EC50,TSAO-m3T-resistant (RT E138K),,>80 µM
CNCc1ccc2c(c1)[C@@H](CC[C@@H](O)CO)[C@H](CN=C(N)N)[C@H]2NC(=O)C(=O)Nc1ccc(Cl)c(F)c1,Cf2Th-CD4/CCR5,,luciferase / entry,EC50,JR-FL,,22 µM
CCCc1cc(=O)oc2c3c(c4c(c12)OC(C)(C)C=C4)O[C@@H](C)[C@H](C)[C@@H]3O,CEM + CEM-SS,,RT activity,EC50,RF,,0.25 µM
COc1cc(/C=C/c2ccc3ccc(C(C)=O)c(O)c3n2)cc(O)c1O,TZM-bl,,luminescence,EC50,,,0.7 µM
COc1cc2c(cc1OC)C(Cc1ccc(O)cc1)N(C)CC2,H9,,p24,EC50,IIIB,,<0.8 µg/mL
CC(=O)c1cccc(CN2C(=O)N(Cc3cccc(C(C)=O)c3)[C@H](Cc3ccc4c(c3)OCCO4)[C@H](O)[C@@H](O)[C@H]2Cc2ccc3c(c2)OCCO3)c1,MT-2,,,EC50,RF,,<0.0042 µM
Cc1cn([C@H]2C[C@H](N=[N+]=[N-])[C@@H](CO)O2)c(=O)[nH]c1=O,PBL,,RT activity,EC50,IIIB,,0.09 µM
Nc1ccn([C@H]2CC[C@@H](CO)O2)c(=O)n1,MT-2,,cytopathic effect / MTT,EC50,RF,,~0.05 µM
Cc1ccc(-n2c(SCC(=O)Nc3ccc(C)cc3Br)nnc2C(F)(F)F)cc1,HeLa,,,EC50,,,0.0004 µM
Cc1cc2nc(-c3ccc4c(c3)c(N3CCN(CC5OCCO5)C3=O)nn4C)sc2c(-c2ccc(Cl)cc2)c1[C@H](OC(C)(C)C)C(=O)O,MT-4,,luminescence,EC50,IIIB,,0.013 µM
O=C(O)c1cc(O)c(O)c(O)c1,MT-4,,MTT,EC50,IIIB,,7.3 µM
COC(=O)[C@@H](Cc1ccccc1)NP(=O)(OC[C@H]1C=C[C@@H](n2cnc3c(N)ncnc32)C1)Oc1ccccc1,MT-4,,cytopathic effect / trypan blue,EC50,IIIB,,13.3 µM
C=C(C)[C@@H]1CC[C@]2(CCO)CC[C@]3(C)C(CCC4[C@@]5(C)CC/C(=C\O)C(C)(C)C5CC[C@]43C)C12,MT-4,,MTT,EC50,IIIB,,151 µM
Cc1cn([C@H]2C[C@H](N=[N+]=[N-])[C@@H](CO)O2)c(=O)[nH]c1=O,MT-4,K103N mutant,MTT,EC50,,,0.008 µM
Nc1ccn([C@H]2CC[C@@H](CO)O2)c(=O)n1,PBL,,RT activity,EC50,IIIB,,0.23 µM
CC(=O)c1cccc(CN2C(=O)N(Cc3cccc(C(C)=O)c3)[C@H](Cc3ccc4c(c3)OCO4)[C@H](O)[C@@H](O)[C@H]2Cc2ccc3c(c2)OCO3)c1,MT-2,,,EC50,RF,,<0.0147 µM
COc1cc2c(cc1O)[C@@H](Cc1ccc(O)cc1)NCC2,H9,,p24,EC50,IIIB,,0.8 µg/mL
Cc1cc(O)cc(O)c1,MT-4,,MTT,EC50,IIIB,,22.17 µM
Cc1ccc2ccc(C)c(-n3c(SCC(=O)Nc4ccc(S(N)(=O)=O)cc4Cl)nnc3C(F)(F)F)c2c1,HeLa,Y188L,,EC50,,,0.026 µM

A second listing of 6 rows from above:

smiles,cells,changes,method,endpoint,strain,conditions,value
O=C1N(Cc2ccccc2)[C@H](Cc2ccccc2)[C@H](O)[C@@H](O)[C@@H](Cc2ccccc2)N1Cc1ccccc1,MT-2,,,EC50,RF,,<0.79 µM
C=C(C)[C@@H]1CC[C@]2(CCO)CC[C@]3(C)C(CCC4[C@@]5(C)CC/C(=C\O)C(C)(C)C5CC[C@]43C)C12,MT-4,,MTT,EC50,IIIB,,151 µM
Cc1ccc(-n2c(SCC(=O)Nc3ccc(C)cc3Br)nnc2C(F)(F)F)cc1,HeLa,,,EC50,,,0.0004 µM
COC(=O)[C@@H](Cc1ccccc1)NP(=O)(OC[C@H]1C=C[C@@H](n2cnc3c(N)ncnc32)C1)Oc1ccccc1,MT-4,,cytopathic effect / trypan blue,EC50,IIIB,,13.3 µM
CN1C[C@H](OCc2ccccc2)C[C@H]1c1nc(C(=O)NCc2ccc(F)cc2)c(O)c(=O)n1C,MT-4,,p24 / ELISA,EC95,IIIB,50% human serum,0.31 µM
CC(=O)N[C@H]1C[C@@H](c2nc(C(=O)NCc3ccc(F)cc3)c(O)c(=O)n2C)N(C)C1,MT-4,,p24 / ELISA,EC95,IIIB,50% human serum,>1 µM

An empty or dashed field is not shown. ECn: concentration that inhibits the pathogen or its effect by n%.